{
  "source": "paper PMC11873239",
  "about": "“A covalent chemical probe for Chikungunya nsP2 cysteine protease with antialphaviral activity and proteome-wide selectivity” (Scientific Reports, 2025)",
  "test_system": "CHIKV nsP2",
  "assay": "TAMRA labelling of purified or lysate-spiked nsP2",
  "type": "binding, Chikungunya virus",
  "conditions": "for TAMRA labelling of nsP2: purified nsP2 or nsP2 (4 µg) spiked in HEK293 lysate, 10 µM (VSS 10 or 100 µM)",
  "data": [
    {"smiles": "C#CCOc1ccc(-c2cc(NC(=O)CCl)n[nH]2)cc1", "note": "[CA, reference compound]", "values": [
      {"measurement": "TAMRA labelling of nsP2", "result": "labeled"}
    ]},
    {"smiles": "CN(C)c1ccc2c(-c3cc(C(=O)NCCCCCCn4cc(COc5ccccc5-c5cc(C(=O)NC/C=C/S(C)(=O)=O)on5)nn4)ccc3C(=O)O)c3ccc(=[N+](C)C)cc-3oc2c1", "note": "[TVS, (E)-N-(9-(2-carboxy-4-((6-(4-((2-(5-((3-(methylsulfonyl)allyl)carbamoyl)isoxazol-3-yl)phenoxy)meth-yl)−1H-1,2,3-triazol-1-yl)hexyl)carbamoyl)phenyl)−6-(dimethylamino)−3H-xanthen-3-ylidene)-N-methyl methanaminium]", "values": [
      {"measurement": "TAMRA labelling of nsP2", "result": "efficient labelling"}
    ]},
    {"smiles": "C#CCOc1ccccc1-c1cc(C(=O)NC/C=C/S(C)(=O)=O)on1", "note": "[VS, (E)-N-(3-(methylsulfonyl)allyl)−3-(2-(prop-2-yn-1-yloxy)phenyl)isoxazole-5-carboxamide]", "values": [
      {"measurement": "TAMRA labelling of nsP2", "result": "efficient TAMRA labeling of nsP2"}
    ]},
    {"smiles": "CS(=O)(=O)/C=C/CNC(=O)c1cc(-c2ccccc2)no1", "note": "[VSC, (E)-N-(3-(methylsulfonyl)allyl)−3-phenylisoxazole-5-carboxamide]", "values": [
      {"measurement": "TAMRA labelling of nsP2 by VS after preincubation with the compound", "setting": "10 µM, 30 min preincubation, HEK293 lysate plus nsP2", "result": "no TAMRA labelling of nsP2 was observed"}
    ]}
  ]
}
